This note sets out measurements from patent publication US20120014883A1, “Compositions Comprising Derivatives Of Essential Oil Compounds And Use In Personal Care Products” (priority 2010, published 2012).

This data set in a line: Descriptive Profile Panel (DPP) sensory test of eugenol (clove-like) taste. As to conditions: for perception of eugenol (clove-like) taste, expert panel rating: 50 ppm in 5% sucrose water solution, swished and expectorated, 0-60 scale with half-unit intervals, 10 panelists.

As to `C=CCc1ccc(O)c(OC)c1` [eugenol, 2-methoxy-4-(2-propenyl)phenol, reference compound], the “perception of eugenol (clove-like) taste, expert panel rating” value turned out to be 24.5. Take `C=CCc1ccc(OC(C)=O)c(OC)c1` [eugenyl acetate]: the “perception of eugenol (clove-like) taste, expert panel rating” value amounted to 14.2. Besides, the “difference in eugenol (clove-like) taste rating vs 50 ppm eugenol solution” value (0-60 scale, differences of 7.5 or more are likely consumer-meaningful) is reported as 10.3.
